Measured values from several laboratories, pooled; numbers as filed in NIAID ChemDB.

All rows: whole-cell or culture tests; organism: Varicella zoster virus; endpoint: EC50

Rows are shuffled and stem from different studies. Two numbers with a dash give a range or band. An empty or dashed field is not shown. ECn: concentration that inhibits the pathogen or its effect by n%.

structure	strain	cell line	method	result
O=c1nc2oc(CCCCOc3ccccc3)cc2cn1[C@H]1C[C@H](O)[C@@H](CO)O1	(TK-)/YS/R	HEL	plaque count	>200 µM
Nc1nc(N)c2ncn(CCOCP(=O)(O)O)c2n1	Oka CF1603-resistant	HEL	cytopathic effect	2.3 µM
NC1=NC2C(C=CN2CC(CO)CCO)C(=O)N1			plaque count	0.01–0.1 µM
Nc1nc2c(ncn2CC[C@H](O)CCO)c(=O)[nH]1	YS/R (TK-)	HEL	cytopathic effect	>400 µg/mL
Brc1ccc(-c2cc3ccccn3c2)cc1	G-31	MRC-5	plaque count	>40 µM
Nc1nc(=O)n([C@@H]2O[C@H](CO)[C@@H](O)[C@@H]2F)cc1I	YS (TK+)	HEL	plaque count	0.14 µM
C=CCNc1nc(N)nc2c1ncn2/C=C1/C[C@@H]1CO		HFF	cytopathic effect	>367 µM
CCCc1ccc(OCCCc2cc3cn([C@H]4C[C@H](O)[C@@H](CO)O4)c(=O)nc3o2)cc1	TK+/YS	HEL	plaque count	10.8 µM
O=c1[nH]c(=O)n([C@H]2C[C@H](O)[C@@H](CO[P@]3(=O)OCc4cccc(-c5ccccc5)c4O3)O2)cc1/C=C/Br	OKA	HELF	plaque count	0.017 µg/mL
Nc1ncnc2c1ncn2[C@@H]1C[C@H](NC=O)[C@@H](O)[C@H]1O		HFF		>100 µg/mL
Nc1nc(N)c2ncn(CCOCP(=O)(O)O)c2n1	07/1 (TK-)	HEL	plaque count	5.2 µM
Nc1ncnc2c1ncn2[C@@H]1C=C(CO)[C@@H](O)[C@H]1O	07/1 YS/R (TK-)	VERO	cytopathic effect	40 µg/mL
CCCOc1ccc(-c2cc3cn([C@H]4C[C@H](O)[C@@H](CO)O4)c(=O)nc3o2)cc1	YS/R (TK-)	HEL	cytopathic effect	>50 µM
C#CCNc1nc(N)nc2c1ncn2/C=C1/C[C@@H]1CO		HFF	cytopathic effect	>74 µM
O=c1nc2oc(-c3ccc(Br)cc3)cc2cn1[C@H]1C[C@H](O)[C@@H](CO)O1	YS	HEL	cytopathic effect	0.1 µM
O=c1ccn([C@@H]2O[C@H](CO)[C@](O)(C(F)(F)F)[C@H]2O)c(=O)[nH]1		VERO	cytopathic effect	>50 µg/mL
CCCCc1ccc2cc(-c3ccccc3)cn2c1	G-31	MRC-5	plaque count	>40 µM
Nc1nc2c(ncn2COC(CO)CO)c(=O)[nH]1	Oka penciclovir-resistant/A	HEL	cytopathic effect	0.39 µM
O=c1[nH]c(=O)n([C@H]2C[C@H](O)[C@@H](COP3(=O)OCc4c(ccc5ccccc45)O3)O2)cc1/C=C/Br	OKA	HELF	plaque count	0.014 µg/mL
CC[C@@H](O)C1=C[C@@H](n2cnc3c(N)ncnc32)[C@H](O)[C@@H]1O	07/1 YS/R (TK-)	HEL	cytopathic effect	>50 µg/mL
O=c1nc2oc(CCCSc3ccccc3)cc2cn1[C@H]1C[C@H](O)[C@@H](CO)O1	(TK+)/OKA	HEL	plaque count	0.9 µM
Nc1ncnc2c1ncn2[C@@H]1C=C(CO)[C@@H](O)[C@H]1O	OKA YS	HEL	cytopathic effect	10 µg/mL
CCCCCOc1ccc(-c2cc3cn([C@H]4C[C@H](O)[C@@H](CO)O4)c(=O)nc3o2)cc1	YS	HEL	cytopathic effect	<0.5 µM
Clc1ccc(-c2cc3ccccn3c2)c(Cl)c1	G-31	MRC-5	plaque count	>40 µM
O=c1nc2oc(-c3ccc(Cl)cc3)cc2cn1[C@H]1C[C@H](O)[C@@H](CO)O1	YS/R (TK-)	HEL	cytopathic effect	>50 µM
Nc1ncnc2ncn(/C=C3/C(F)C3(CO)CO)c12		HFF	cytopathic effect	2.7 µM
NC1=NS(=O)(=O)N(Cc2ccccc2)c2nc(Cc3ccccc3)[nH]c21	07/1 (TK-)	HEL	plaque count	12 µg/mL
O=C(O)P(=O)(O)O	Oka CF1743-resistant	HEL	cytopathic effect	25.5 µM
CO[C@H](CO)[C@@H](O)CCn1cnc2c(=O)[nH]c(N)nc21	YS/R (TK-)	HEL	cytopathic effect	>400 µg/mL
CC(C)[C@H](N)C(=O)N[C@H](C(=O)OCC(COC(=O)[C@@H](NC(=O)[C@@H](N)C(C)C)C(C)C)OCn1cnc2c(=O)[nH]c(N)nc21)C(C)C		HFF	plaque count	18.4 µM
Nc1nc(NC2CC2)c2ncn(/C=C3/C[C@@H]3CO)c2n1		HFF	cytopathic effect	7 µM
Nc1nc2c(ncn2C[C@]2(CO)C[C@H]2CO)c(=O)[nH]1			plaque count	0.1–1 µM
O=c1[nH]c(=O)n([C@@H]2O[C@H](CO)[C@@H](O)[C@@H]2O)cc1/C=C/Br	Oka BVDU-resistant	HEL	cytopathic effect	>57 µM
Fc1ccc2cc(-c3ccccc3)cn2c1	G-31	MRC-5	plaque count	>50 µM
CCOC(=O)CC1OP(=O)(OC[C@H]2O[C@@H](n3cc(/C=C/Br)c(=O)[nH]c3=O)C[C@@H]2O)Oc2cccc(Cl)c21	OKA	HELF	plaque count	0.006 µg/mL
C#C[C@H](O)C1=C[C@@H](n2cnc3c(N)ncnc32)[C@H](O)[C@@H]1O	OKA YS	HEL	cytopathic effect	>50 µg/mL
NC1=NS(=O)(=O)N(Cc2ccccc2)c2nc[nH]c21	OKA	HEL	plaque count	>50 µg/mL
CC(C)CS[C@@H]1C[C@H](n2cnc3c(N)ncnc32)[C@@H](O)[C@H]1O	OKA	HEL	cytopathic effect	>200 µg/mL
O=C(O)c1ccc2cc(-c3ccccc3)cn2c1	G-31	MRC-5	plaque count	>40 µM
CC(C)[C@H](N)C(=O)NCC(=O)OCC(COC(=O)CNC(=O)[C@@H](N)C(C)C)OCn1cnc2c(=O)[nH]c(N)nc21		HFF	plaque count	4.3 µM
FC(F)(F)Oc1ccc(-c2cc3ccccn3c2)cc1	G-31	MRC-5	plaque count	5 µM
O=c1[nH]c(=O)n([C@H]2C[C@H](O)[C@@H](CO)O2)cc1-c1cc(Br)no1	YS	HEL	plaque count	0.24 µg/mL
CO[C@H](CO)[C@@H](O)CCn1cnc2c(N)ncnc21	YS/R (TK-)	HEL	cytopathic effect	>400 µg/mL
O=c1[nH]c(=O)n([C@H]2C[C@H](O)[C@@H](COP3(=O)OCc4cccc(-c5ccccc5)c4O3)O2)cc1/C=C/Br	OKA	HELF	plaque count	0.02 µg/mL
Nc1ccn(C[C@@H](CO)OCP(=O)(O)O)c(=O)n1	YS/R (TK-)	HEL	plaque count	0.08 µM
Clc1cccn2cc(-c3ccccc3)cc12	G-31	MRC-5	plaque count	12.5 µM
Nc1ccn(CC[C@H](O)CCO)c(=O)n1	YS	HEL	cytopathic effect	>400 µg/mL
Nc1nc(NCC2CC2)c2ncn(/C=C3/C[C@@H]3CO)c2n1		HFF	cytopathic effect	10.1 µM
C[C@@]1(O)[C@@H](CO)O[C@@H](n2cnc3c(N)ncnc32)[C@@H]1O		VERO	cytopathic effect	>5 µg/mL
O=C(O)CP(=O)(O)O	OKA (TK+)	HEL	plaque count	51.4 µM
Nc1nc2c(ncn2CCC(CO)CO)c(=O)[nH]1	YS/R (TK-)	HEL	plaque count	29 µg/mL
CCCCCSc1nc(N)nc2c1ncn2/C=C1/C[C@@H]1CO		HFF	cytopathic effect	2.3 µM
Nc1nc2c(ncn2[C@@H]2C=C[C@H](CO)[C@@H](O)C2)c(=O)[nH]1	YS			0.49 µg/mL
Nc1ncnc2c1ncn2C[C@@H](CO)OCP(=O)(O)O	Oka penciclovir-resistant/A	HEL	cytopathic effect	0.011 µM
NC1=NC2C(C=CN2CC(CO)CCO)C(=O)N1	07/1 (TK-)	HEL	plaque count	71.8 µM

Repeating the final 4 entries:

structure | strain | cell line | method | result
CCCCCSc1nc(N)nc2c1ncn2/C=C1/C[C@@H]1CO |  | HFF | cytopathic effect | 2.3 µM
Nc1nc2c(ncn2[C@@H]2C=C[C@H](CO)[C@@H](O)C2)c(=O)[nH]1 | YS |  |  | 0.49 µg/mL
Nc1ncnc2c1ncn2C[C@@H](CO)OCP(=O)(O)O | Oka penciclovir-resistant/A | HEL | cytopathic effect | 0.011 µM
NC1=NC2C(C=CN2CC(CO)CCO)C(=O)N1 | 07/1 (TK-) | HEL | plaque count | 71.8 µM